Compound potency records, mixed from different reports. Data source: NIAID ChemDB in PubChem.

Shared fields: toxicity to cultured cells; cell line: MT-4; measure: CC50

CCn: concentration that lowers growth or viability of the cells by n%. Neighbouring rows are from separate reports.

structure,value
CC(C)(C)NC(=O)[C@@H]1C[C@@H]2CCCC[C@@H]2CN1C[C@@H](O)[C@H](Cc1ccccc1)NC(=O)[C@H](CC(N)=O)NC(=O)c1ccc2ccccc2n1,>10 µM
CCn1nnc2c(C)nn(C)c21,>200 µM
NOCc1ccccc1F,74.7 µg/mL
Cc1cn([C@H]2C[C@H](N=[N+]=[N-])[C@@H](CO)O2)c(=O)[nH]c1=O,201 µM
O=C1C[C@@H](c2ccccc2)Oc2cc(O)cc(O)c21,>100 µg/mL
CC(=O)OCC1=C[C@H]2[C@@H]3C(C)(C)[C@]3(OC(C)=O)[C@H](OC(C)=O)[C@@H](C)[C@]2(O)[C@@H]2C=C(C)C(=O)[C@]2(OC(C)=O)C1,>500 µg/mL
COC(=O)[C@H](C)NP(=O)(OC[C@@H]1C=C[C@H](n2cnc3c(N)ncnc32)O1)Oc1ccccc1,18 µM
CCCCCCCCC(=O)O[C@@]12[C@H](OC(C)=O)[C@@H](C)[C@@]3(O)[C@@H](C=C(CO)C[C@]4(O)C(=O)C(C)=C[C@@H]34)[C@@H]1C2(C)C,>31.3 µg/mL
Cc1cn([C@H]2C[C@H](F)[C@@H](CO)O2)c(=O)nc1N,206 µM
CCCCCCCCCC(=O)O[C@@H]1[C@@H](C)[C@@]2(O)[C@@H](C=C(COC(C)=O)C[C@]3(O)C(=O)C(C)=C[C@@H]23)[C@@H]2C(C)(C)[C@]12OC(=O)C(C)CC,>15.6 µg/mL
CCc1cc(NCc2nc3c(Cl)ccc(Cl)c3o2)c(=O)[nH]c1C,>60 µM
Cc1c(O)cccc1C(=O)N[C@@H](CSc1ccccc1)[C@@H](CN1C[C@H]2CCCC[C@H]2C[C@H]1C(=O)NC(C)(C)C)OC(=O)CCCCNC(=O)O[C@H]1[C@@H](C2COC(C)(C)O2)OC2OC(C)(C)O[C@H]21.O=C(O)C(F)(F)F.O=C(O)C(F)(F)F,>10 µM
CCc1cc(NCc2nc3ccccc3o2)c(=O)[nH]c1C,>60 µM
CCCCCCCCCCCC(=O)O[C@@]12[C@H](OC(C)=O)[C@@H](C)[C@@]3(O)[C@@H](C=C(CO)C[C@]4(O)C(=O)C(C)=C[C@@H]34)[C@@H]1C2(C)C,>500 µg/mL
Cc1nn(-c2ccccc2)c2nn([C@@H]3O[C@H](CO)[C@@H](O)[C@H]3O)nc12,145 µM
O=C(OC[C@H]1O[C@@H](n2c(=S)[nH]c3cc(Cl)c(Cl)cc32)C(OC(=O)c2ccccc2)C1OC(=O)c1ccccc1)c1ccccc1,>100 µM
CC(C)(C)NC(=O)[C@@H]1C[C@@H]2CCCC[C@@H]2CN1C[C@@H](OC(=O)CCCCO[C@@H]1[C@@H](O)[C@@H](O)O[C@H](CO)[C@H]1O)[C@H](Cc1ccccc1)NC(=O)[C@H](CC(N)=O)NC(=O)c1ccc2ccccc2n1,>10 µM
CCOC(=O)c1oc2cc(O)cc(O)c2c(=O)c1Oc1ccc(OC)cc1OC,>25 µg/mL
O=c1[nH]cnc2c1ncn2[C@H]1CC[C@@H](CO)O1,>250 µM
CCOCn1c(Sc2ccccc2)c(CC)c(=O)[nH]c1=S,33 µM
CC(C)(C)NC(=O)[C@@H]1CC2CCCCC2CN1C[C@@H](OC(=O)CCCCNC(=O)O[C@H]1[C@@H](C2COC(C)(C)O2)OC2OC(C)(C)O[C@H]21)[C@H](Cc1ccccc1)NC(=O)[C@H](CC(N)=O)NC(=O)c1ccc2ccccc2n1.O=C(O)C(F)(F)F.O=C(O)C(F)(F)F.O=C(O)C(F)(F)F.O=C(O)C(F)(F)F,>10 µM
Cc1cn([C@H]2C[C@H](N=[N+]=[N-])[C@@H](CO)O2)c(=O)[nH]c1=O,1.8 µg/mL
Cc1cn([C@H]2C[C@H](N)[C@@H](CO)O2)c(=O)[nH]c1=O,206 µM
Cc1nn(-c2ccccc2)c2n[nH]nc12,>200 µM
Nc1ncnc2c1ncn2[C@@H]1O[C@H](CO)[C@H]1CO,23 µg/mL
Nc1nc2c(ncn2[C@H]2C[C@H](N)[C@@H](CO)O2)c(=O)[nH]1,200 µM
Cc1cn([C@H]2C[C@H](N=[N+]=[N-])[C@@H](COP(=O)(OCCSC(=O)C(C)(C)C)OCCSC(=O)C(C)(C)C)O2)c(=O)[nH]c1=O,>10 µM
NOCc1cccc(Cl)c1Cl,44.8 µg/mL
CC(C)c1c(Sc2ccccc2)n(COCc2ccccc2)c(=O)[nH]c1=O,20 µM
CC(C)(C)NC(=O)[C@@H]1CC2CCCCC2CN1C[C@@H](OC(=O)CCC(=O)O[C@H]1[C@@H](C2COC(C)(C)O2)OC2OC(C)(C)O[C@H]21)[C@H](Cc1ccccc1)NC(=O)[C@H](CC(N)=O)NC(=O)c1ccc2ccccc2n1,8 µM
OC[C@H]1O[C@@H](Sc2nc3cc(Cl)c(Cl)cc3[nH]2)C(O)C1O,>100 µM
Nc1nc(Br)nc2c1ncn2[C@@H]1O[C@H](CO)[C@H]1O,30 µg/mL
Nc1ccn([C@H]2CC[C@@H](CO)O2)c(=O)n1,61.2 µg/mL
COc1c(CC=C(C)C)c(O)cc2c1C[C@H](c1ccc(O)cc1O)CO2,34 µg/mL
Cc1cn([C@H]2C[C@H](F)[C@@H](CO)O2)c(=O)[nH]c1=O,1.1 µM
OC[C@@H]1O[C@H](n2c(=S)n([C@@H]3O[C@H](CO)[C@@H](O)[C@H]3O)c3cc(Cl)c(Cl)cc32)[C@@H](O)[C@H]1O,>100 µM
Cc1cn([C@H]2C[C@H](N=[N+]=[N-])[C@@H](CO)O2)c(=O)[nH]c1=O,5.2 µM
Cc1cn([C@H]2C[C@H](N=[N+]=[N-])[C@@H](CO)O2)c(=O)[nH]c1=O,>60 µM
Nc1ccn([C@H]2CC[C@@H](CO)O2)c(=O)n1,634 µM
COc1cc(O)ccc1/C=C/C(=O)c1ccc(O)cc1,12 µg/mL
CC(C)(C)NC(=O)[C@@H]1CN(Cc2cccnc2)CCN1C[C@@H](O)C[C@@H](Cc1ccccc1)C(=O)N[C@H]1c2ccccc2C[C@H]1OC(=O)CCCCO[C@@H]1[C@@H](O)[C@@H](O)O[C@H](CO)[C@H]1O,>10 µM
Nc1nc(F)nc2c1ncn2[C@@H]1O[C@H](CO)[C@H]1O,5.6 µg/mL